Pooled drug test results. Numbers come from NIAID ChemDB, via PubChem.

All rows: whole-cell or culture tests; organism: Mycobacterium smegmatis

Conditions beyond the fields shown may differ between rows. ECn: concentration that inhibits the pathogen or its effect by n%. An empty or dashed field is not shown. MIC50, MIC90 and the like: level of inhibition, or share of isolates inhibited.

compound,method,endpoint,changes,strain,value
CCc1cc(C(N)=S)ccn1,-,MIC,-,MC^2 799,30 µg/mL
CCO/N=C(/CN1CCN(c2cc3c(cc2F)c(=O)c(C(=O)O)cn3C2CC2)CC1)c1cc2ccccc2oc1=O,-,MIC,-,CMCC 93202,>12.5 µg/mL
CCCCCCCCCCCCCCCC#CC(=O)OCC(O)CO,-,MIC99,-,mc2651,3 µM
CCCCCCCCCCCCC#CCC(=O)O,-,MIC,-,mc2155,20 µg/mL
CSCC[C@H](NS(=O)(=O)c1ccc(C)cc1)C(=O)N/N=C/c1cccc2c1OCO2,broth dilution / visual reading,MIC,-,ATCC 607,>250 µg/mL
CO/N=C(/CN1CCN(c2c(F)cc3c(=O)c(C(=O)O)cn(C4CC4)c3c2OC)CC1C)c1cc2ccc(OC)cc2oc1=O,-,MIC,-,CMCC 93202,6.25 µg/mL
CCCCCCSCCCCCCCCCCC#CC(=O)O,-,MIC99,-,mc2651,153.2 µM
CC1OC(n2ccc(NC(=O)c3ccc(NC(=O)C(C)(N)CO)cc3)nc2=O)CCC1OC1OC(C)C(N(C)C)C(O)C1O,broth dilution / agar diffusion,MIC,-,-,8 µg/mL
N=C(N)N1N=C(/C=C/c2ccc(Cl)cc2)CC1c1ccc(Cl)cc1,resazurin,MIC,-,-,1.74 µM
CCCCCCCCCCCCc1ccc(NC(=O)C2=CCN(C)[C@@H]([C@H](O[C@@H]3O[C@H](CN)[C@@H](O)[C@H]3O)[C@H]3O[C@@H](n4ccc(=O)[nH]c4=O)[C@H](O)[C@@H]3O)C(=O)N2C)cc1,-,MIC,-,ATCC 607,6.25 µg/mL
COC(=O)[C@@H](N)[C@@H](OC(=O)CNC(=O)C(CS)NC(=O)CCC(NC(=O)OCc1ccccc1)C(=O)O)C(=O)OC,turbidity,MIC90,-,-,6 µg/mL
CSCC[C@H](NS(=O)(=O)c1ccc(C)cc1)C(=O)N/N=C/c1ccco1,broth dilution / visual reading,MIC,-,ATCC 607,>515 µg/mL
Cc1onc(-c2c(F)cccc2F)c1C(=O)N1CCN(c2c(F)cc3c(=O)c(C(=O)O)cn4c3c2OCC4C)CC1,agar,MIC99,-,-,43.98 µM
CCCCCCCCCCCCCCCCCC#CC(=O)O,-,MIC99,-,mc2651,>200 µM
CCCCCCCCCCCC#CC(=O)O,-,MIC,-,mc2155,268 µg/mL
C[C@H]1[C@H](C)CC[C@]2(C(=O)O)CC[C@]3(C)C(CC[C@@H]4[C@@]5(C)C[C@H](O)CC(C)(C)[C@@H]5CC[C@]43C)[C@H]12,resazurin,MIC,-,-,>200 µg/mL
CCCCCCCCCCCCCCCC#CC(=O)O,-,MIC,-,mc2155,4 µg/mL
C=C1C(=O)[C@@]23C(=O)O[C@H]4CCC(C)(C)[C@H]5[C@H](O)OC[C@@]45[C@@H]2CC[C@@H]1[C@H]3OC(=O)c1cnccn1,resazurin,MIC,-,ATCC 19420,>64 µg/mL
O=C1CCC(=O)N(O)CCCCCNC(=O)CCC(=O)N(O)CCCCCNC(=O)CCC(=O)N(O)CCCCCN1,MTT,MIC,-,mc2155,>160 µM
CCCCCCCCC#CCCCCCCC#CC(=O)O,-,MIC99,-,mc22389,>200 µM
CCCCCCCCCC#CC(=O)O,-,MIC,-,mc2155,>300 µg/mL
COc1c(N2CCN(CC(=O)c3cc4ccccc4oc3=O)CC2)c(F)cc2c(=O)c(C(=O)O)cn(C3CC3)c12,-,MIC,-,CMCC 93202,6.25 µg/mL
CC1COc2c(N3CCN(C(c4ccccc4)c4ccc(Cl)cc4)CC3)c(F)c([N+](=O)[O-])c3c(=O)c(C(=O)O)cn1c23,agar,MIC,-,ATCC 14468,0.66 µM
CCCCCCCCCCCCCCC#CCC(=O)O,-,MIC,-,mc2155,36 µg/mL
CSCC[C@H](NS(=O)(=O)c1ccc(C)cc1)C(=O)N/N=C/c1ccc(N2CCCCC2)cc1,broth dilution / visual reading,MIC,-,ATCC 607,>250 µg/mL
CC1OC(n2ccc(NC(=O)c3ccc(N)cc3)nc2=O)CCC1OC1OC(C)C(N(C)C)C(O)C1O,broth dilution / agar diffusion,MIC,-,-,32 µg/mL
CCCCCCCCCCCCSCC#CC(=O)O,-,MIC99,-,mc22389,92.5 µM
C=C1C2CCC(C(=O)O)[C@@]23CC[C@H](C3)C1(C)C,agar diffusion,MIC,MDR quinolone-resistant,-,12.5 µg/mL
CC1COc2c(N3CCN(Cc4ccc5c(c4)OCO5)CC3)c(F)c([N+](=O)[O-])c3c(=O)c(C(=O)O)cn1c23,agar,MIC99,-,-,1.48 µM
CN1[C@@H]2CC[C@H]1CC(OC(c1ccccc1)c1ccccc1)C2,-,MIC99,-,mc2155,125 µg/mL
CSCC[C@H](NS(=O)(=O)c1ccc(C)cc1)C(=O)N/N=C1/CCc2ccccc21,broth dilution / visual reading,MIC,-,ATCC 607,>250 µg/mL
N=C(N)N1N=C(/C=C/c2ccccc2)CC1c1ccccc1,resazurin,MIC,-,-,≤1.07 µM
C=C1C(=O)[C@@]23C(=O)O[C@H]4CCC(C)(C)[C@H]5C(=O)OC[C@@]45[C@@H]2CC[C@@H]1[C@H]3OC(=O)c1cc2ccccc2[nH]1,resazurin,MIC,-,ATCC 19420,8 µg/mL
CCCCCCCCCCCCCC#CC(=O)OCCO,-,MIC99,-,mc2651,13.6 µM
CC1COc2c(N3CCN(C(=O)c4ccco4)CC3)c(F)c([N+](=O)[O-])c3c(=O)c(C(=O)O)cn1c23,agar,MIC99,-,-,3.21 µM
Cc1c(C)c(C)[c-](C)c1C.N[C@@H](Cc1ccccc1)C(=O)[O-].[Cl][Ir+2],-,MIC,-,VT 307,10 µg/mL
CO/N=C(/CN1CCN(c2c(F)cc3c(=O)c(C(=O)O)cn(C4CC4)c3c2OC)CC1)c1cc2ccccc2oc1=O,-,MIC,-,CMCC 93202,6.25 µg/mL
CCCCCCCCCCCCCCC/C=C/C(=O)O,-,MIC,-,mc2155,>200 µg/mL
CSCC[C@H](NS(=O)(=O)c1ccc(C)cc1)C(=O)N/N=C/C1CC2=CCC1C2,broth dilution / visual reading,MIC,-,ATCC 607,>250 µg/mL
C=C/C(C)=C/[C@@]1(C)SC(=O)C(C)=C1O,-,MIC,-,mc2155,75 µg/mL
COc1ccc2cc(C(=O)CN3CCN(c4cc5c(cc4F)c(=O)c(C(=O)O)cn5C4CC4)CC3)c(=O)oc2c1,-,MIC,-,CMCC 93202,12.5 µg/mL
CSCC[C@H](NS(=O)(=O)c1ccc(C)cc1)C(=O)N/N=C(\C)C12CC3CC(CC(C3)C1)C2,broth dilution / visual reading,MIC,-,ATCC 607,132.5 µg/mL
COC1=C2C(=O)O[C@@]13C[C@@H](C)C=C[C@H]3/C=C/C(=O)[C@@H](C)C[C@@H](C)C2=O,-,MIC,-,mc2155,>80 µg/mL
CO/N=C(/CN1CCN(c2c(F)cc3c(=O)c(C(=O)O)cn(C4CC4)c3c2OC)CC1)c1cc2ccc(OC)cc2oc1=O,-,MIC,-,CMCC 93202,6.25 µg/mL
CCc1ccc(/C=N/NC(=O)[C@H](CCSC)NS(=O)(=O)c2ccc(C)cc2)s1,broth dilution / visual reading,MIC,-,ATCC 607,>250 µg/mL
O=C(O)c1cc2cccc([N+](=O)[O-])c2[nH]1,PCR,EC50,-,-,314.2 µM
CSCC[C@H](NS(=O)(=O)c1ccc(C)cc1)C(=O)N/N=C/C1CCCCC1,broth dilution / visual reading,MIC,-,ATCC 607,>250 µg/mL
CCCCCCCCCCCCCC#CCC#CC(=O)O,-,MIC99,-,mc2651,172.3 µM
C=C1C(=O)[C@@]23C(=O)O[C@H]4CCC(C)(C)[C@H]5[C@H](O)OC[C@@]45[C@@H]2CC[C@@H]1[C@H]3OC(=O)c1cc2ccccc2[nH]1,resazurin,MIC,-,ATCC 19420,8 µg/mL
C[C@H]1COc2c(N3CCC4(CC3)OCCO4)c(F)cc3c(=O)c(C(=O)O)cn1c23,agar,MIC99,-,-,3.86 µM
CO[C@H]1/C=C/O[C@@]2(C)Oc3c(C)c(O)c4c(O)c(c(/C=N/N=c5\sc6ccccc6n5C)c(O)c4c3C2=O)NC(=O)/C(C)=C\C=C\[C@H](C)[C@H](O)[C@@H](C)[C@@H](O)[C@@H](C)[C@H](OC(C)=O)[C@@H]1C,-,MIC,-,ATCC 607,1.56 µg/mL
CC(=O)Oc1ccccc1C(=O)Nc1cnccn1,resazurin,MIC,-,-,≥500 µg/mL
C[C@H]1COc2c(N3CCN(C(=O)C4COc5ccccc5O4)CC3)c(F)cc3c(=O)c(C(=O)O)cn1c23,agar,MIC99,-,-,49.07 µM
Cc1ccc([N+](=O)[O-])cc1NC(=O)Nc1ccc(Cl)c(Cl)c1,broth dilution / turbidity,MIC90,-,-,0.5 µg/mL
CNCCC[C@@H](CN[C@H](CN)Cc1cccc2ccccc12)NCCc1cccc2ccccc12,absorbance,MIC,-,mc2155,12.5 µM
C[C@@H]1CN(c2c(F)c(N)c3c(=O)c(C(=O)O)cn(C4CC4)c3c2F)C[C@H](C)N1,-,MIC,-,ATCC 607,0.1 µg/mL
C=C1C(=O)[C@@]23C(=O)O[C@H]4CCC(C)(C)[C@H]5C(=O)OC[C@@]45[C@@H]2CC[C@@H]1[C@H]3OC(=O)C1CCCC1,resazurin,MIC,-,ATCC 19420,4 µg/mL